# Earlier results in patent US10344060B2 (priority 2013, dated 2019).
# The chains behind the UniProt entries cited, without tags or fusion partners.
# UniProt P04775, whole entry, looked up: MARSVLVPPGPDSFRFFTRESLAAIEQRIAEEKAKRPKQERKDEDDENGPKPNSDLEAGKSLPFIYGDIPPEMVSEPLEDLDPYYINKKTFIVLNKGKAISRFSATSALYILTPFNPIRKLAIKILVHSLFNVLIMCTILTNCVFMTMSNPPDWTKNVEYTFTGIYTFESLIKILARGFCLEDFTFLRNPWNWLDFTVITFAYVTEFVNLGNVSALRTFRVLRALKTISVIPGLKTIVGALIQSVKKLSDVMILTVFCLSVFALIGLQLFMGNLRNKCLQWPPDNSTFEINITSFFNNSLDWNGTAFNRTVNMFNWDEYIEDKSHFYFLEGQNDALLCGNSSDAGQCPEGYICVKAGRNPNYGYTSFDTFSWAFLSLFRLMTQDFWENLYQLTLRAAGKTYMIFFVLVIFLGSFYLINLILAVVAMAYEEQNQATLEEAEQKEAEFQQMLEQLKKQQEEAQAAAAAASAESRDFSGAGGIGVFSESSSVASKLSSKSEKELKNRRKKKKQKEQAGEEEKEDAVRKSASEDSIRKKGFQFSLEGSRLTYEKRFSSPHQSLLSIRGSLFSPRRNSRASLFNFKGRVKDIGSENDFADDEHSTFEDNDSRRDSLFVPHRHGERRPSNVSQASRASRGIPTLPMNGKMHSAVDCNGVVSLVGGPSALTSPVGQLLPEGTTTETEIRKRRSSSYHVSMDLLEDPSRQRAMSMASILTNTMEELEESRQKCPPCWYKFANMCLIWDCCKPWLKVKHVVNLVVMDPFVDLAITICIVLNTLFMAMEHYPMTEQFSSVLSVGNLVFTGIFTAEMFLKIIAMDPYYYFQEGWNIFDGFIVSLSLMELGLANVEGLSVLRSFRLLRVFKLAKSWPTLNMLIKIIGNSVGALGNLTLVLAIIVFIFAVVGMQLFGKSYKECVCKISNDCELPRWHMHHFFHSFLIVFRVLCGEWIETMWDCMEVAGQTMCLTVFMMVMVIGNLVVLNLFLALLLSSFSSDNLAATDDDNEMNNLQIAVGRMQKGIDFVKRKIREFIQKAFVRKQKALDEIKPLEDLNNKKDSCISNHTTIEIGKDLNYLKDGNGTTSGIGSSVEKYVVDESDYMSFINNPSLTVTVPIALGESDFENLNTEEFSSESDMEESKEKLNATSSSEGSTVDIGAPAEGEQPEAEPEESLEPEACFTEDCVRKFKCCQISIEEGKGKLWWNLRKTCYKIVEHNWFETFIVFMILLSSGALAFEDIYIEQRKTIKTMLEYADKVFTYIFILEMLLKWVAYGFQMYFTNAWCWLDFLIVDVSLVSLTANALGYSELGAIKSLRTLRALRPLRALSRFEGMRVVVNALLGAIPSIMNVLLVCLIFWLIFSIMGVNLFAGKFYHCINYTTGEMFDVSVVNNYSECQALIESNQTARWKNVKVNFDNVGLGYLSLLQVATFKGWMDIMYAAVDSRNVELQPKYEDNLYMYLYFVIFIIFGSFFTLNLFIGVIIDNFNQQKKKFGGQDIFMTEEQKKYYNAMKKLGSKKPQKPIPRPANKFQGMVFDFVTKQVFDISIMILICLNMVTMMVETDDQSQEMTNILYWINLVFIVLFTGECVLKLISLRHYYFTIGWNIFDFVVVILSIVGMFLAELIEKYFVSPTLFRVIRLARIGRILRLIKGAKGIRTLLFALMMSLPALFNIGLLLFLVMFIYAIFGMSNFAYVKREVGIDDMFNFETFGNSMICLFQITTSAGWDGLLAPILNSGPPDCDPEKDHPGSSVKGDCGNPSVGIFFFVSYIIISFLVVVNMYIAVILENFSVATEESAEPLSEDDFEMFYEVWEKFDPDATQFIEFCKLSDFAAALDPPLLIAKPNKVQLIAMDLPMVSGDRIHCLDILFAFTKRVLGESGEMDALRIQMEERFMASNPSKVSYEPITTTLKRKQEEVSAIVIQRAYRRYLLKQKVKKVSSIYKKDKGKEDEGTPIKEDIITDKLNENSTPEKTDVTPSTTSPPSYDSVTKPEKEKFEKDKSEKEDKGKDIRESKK
# How the values were obtained:
# Nav1.1 = Nav1.1 (Rattus norvegicus, UniProt P04774); settings: read-out: TTX IC50; cited from earlier work
# Nav1.2 = Nav1.2 (Rattus norvegicus, UniProt P04775); settings: read-out: TTX IC50; cited from earlier work
smiles,measurement,setting,value
"NC1=N[C@H](O)[C@H]2[C@H]3O[C@]4(O)O[C@@H]([C@@H](O)[C@@]2(N1)[C@@H]4O)[C@]3(O)CO [TTX, tetrodotoxin]",IC50,Nav1.1,10 nM
same,IC50,Nav1.2,10 nM
